# Screening data, single-dose tests

Mtb cholesterol medium: 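Growth of Mycobacterium tuberculosis over 4 days (cholesterol / DPPC medium with tyloxapol); the read-out is not stated. Compounds at 500 µM. The record gives no direction; compounds that gave an IC50 in retests scored well above the rest, so higher reads as more growth inhibition. Of about 18,000 compounds tested this way, about 900 (5%) reached 50% or more in at least one test.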
Mtb glucose medium: 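Phenotypic screen: M. tuberculosis growth, glucose 7H9 medium, 3 days; the read-out is not stated. Tested at 500 µM. The record gives no direction; compounds that gave an IC50 in retests scored well above the rest, so higher reads as more growth inhibition. About 18,000 compounds were tested under these conditions; 7.9% (about 1,400) showed 50% or more at least once.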

Results are given as percent effect.
How 0% and 100% were set is not recorded. Most values in the screen are low, and negative values occur.
This is part of a subset picked to be rich in strong results.
A dash means the value is not listed here; it may have been measured.

| Compound | Mtb cholesterol medium | Mtb glucose medium |
|---|---|---|
| `COc1cc(C#N)cnc1C` | -12.36 | - |
| `CN1CCN(CC2CNC2)CC1` | -2.181 | - |
| `COCC(=O)NCCc1noc(-c2ccccc2)n1` | - | 27.63 |
| `NC(=O)NC(=O)CN1CCOC(c2ccc(F)cc2)C1` (centres undefined) | -6.585 | - |
| `Cc1cccc(NC(=O)NCc2c(C)noc2C)n1` | - | 53.53 |
| `COC(=O)c1ccc(CSc2n[nH]c(=O)n2C)o1` | 7.704 | 20.22 |
| `CCN(Cc1ccc(CO)o1)CC1CCCO1` (centres undefined) | -2.563 | - |
| `Cc1ccc(C(=O)N2CCN(C(C)C(N)=O)CC2)s1` (centres undefined) | - | 5.332 |
| `CN1CCC(N(C)CC(O)COCc2cccs2)CC1` (centres undefined) | 12.75 | 11.02 |
| `NCc1ccc(-n2ccnc2)cc1` | -12.1 | - |
| `O=C(c1ccc2c(c1)OCCO2)C1CCNCC1` | 21.07 | - |
| `CN1CCN(C(=O)C2CC2)c2ccccc2C1` | - | 4.853 |
| `CCC(NC(=O)c1ccc(=O)[nH]c1)c1nc(C)c(C)s1` (centres undefined) | - | 0.9446 |
| `Cc1cc(C(=O)N2CCn3cccc3C2C)no1` (centres undefined) | - | -17.45 |
| `CCOCC1CCN(S(C)(=O)=O)CC1` | 7.336 | - |
| `O=C(Nc1ncco1)NC1CCN(c2ccccn2)C1` (centres undefined) | - | 3.229 |
| `Cc1noc(C)c1CNC1=NS(=O)(=O)c2ccccc21` | - | -168 |
| `CC(CNC(=O)Cn1cccn1)Sc1ccccc1` (centres undefined) | 71.63 | 75.76 |
| `NC1(CF)CCOCC1` | - | 4.309 |
| `Cc1nn(C)c(N(C)C)c1CNCCc1cnn(C)c1` | -8.881 | - |
| `NCC1(CC(N)=O)CC1` | - | 10.76 |
| `Cn1ncnc1NC(=O)c1c(F)cc(F)cc1F` | -11.4 | - |
| `Cn1cc(-c2csc(CCN3CCOC3=O)n2)cn1` | 7.756 | - |
| `O=C(NCC(O)c1ccc(F)cc1)Nc1cnns1` (centres undefined) | - | 58.77 |
| `Cn1cccc1C1COCCN1` (centres undefined) | - | -15.27 |
| `COc1cccc(CN)c1C` | - | 6.256 |
| `CC1c2cccn2CCN1C(=O)c1ccc(O)nc1` (centres undefined) | - | -15.62 |
| `COc1cccc(CNc2ccccc2CO)n1` | - | 53.71 |
| `CC(O)COc1ccccc1CN` (centres undefined) | -3.582 | - |
| `COCCN1CCC(NC(=O)c2nccnc2N)C1` (centres undefined) | - | 4.441 |
| `Cc1cc(N2CCCC(N)C2)nc(C)n1` (centres undefined) | 5.687 | 6.363 |
| `CO[C@H]1CN(C(=O)CCCc2cn[nH]c2)CC[C@H]1N` | - | 5.765 |
| `COc1ccccc1CCNC(=O)CC1CCNC1` (centres undefined) | 14 | - |
| `COc1ccc(CC(=O)N(C)C)c(OC)c1OC` | -9.263 | -3.92 |
| `NC1CCCc2ccc(F)cc21` (centres undefined) | -24.46 | - |
| `O=C(NC1CCCC1)c1cnccn1` | 0.4239 | - |
| `O=c1ccccn1CCO` | - | -6.806 |
| `CC(C)(C)CNC(=O)CCN1C(=O)CCC1=O` | 5.671 | - |
| `CCN(CCO)Cc1cc(=O)n2cc(C)ccc2n1` | - | -2.805 |
| `O=C(c1cccc2cc[nH]c12)N1CCSCC1` | 6.704 | 53.06 |
| `COCCC(C)CN` (centres undefined) | -12.71 | - |
| `COC(CO)Cc1ccccc1` (centres undefined) | - | 5.739 |
| `Cc1ccc(CNC(=O)c2nccs2)cn1` | - | 45.49 |
| `O=C1CN(C(=O)c2cc3cccc(Br)c3o2)CCN1` | - | 6.077 |
| `C1CC(N2CCN(CC3CC3)CC2)CCN1` | - | -25.69 |
| `CCC(C)NC(=O)c1cc(F)cc(F)c1` (centres undefined) | 59.74 | 65.82 |
| `CC1CCN(C(=O)c2cnn(-c3cccnc3)c2)CC1` | 60.92 | 73.84 |
| `CCn1ncnc1CN1C[C@H](C2CC2)[C@@H](N)C1` | - | 12.12 |
| `OCCC1(NCC(F)(F)F)CCOCC1` | -9.939 | - |
| `CC(C)CCC(C)NC(=O)c1ccc(=O)n(C)c1` (centres undefined) | 23.97 | - |
| `CC(C)CN1CCC(Nc2ccc3nnnn3n2)CC1` | -6.087 | - |

The last 4 entries again:

CCn1ncnc1CN1C[C@H](C2CC2)[C@@H](N)C1 read Mtb glucose medium: 12.12%.
OCCC1(NCC(F)(F)F)CCOCC1 read Mtb cholesterol medium: -9.939%.
CC(C)CCC(C)NC(=O)c1ccc(=O)n(C)c1 (centres undefined) read Mtb cholesterol medium: 23.97%.
CC(C)CN1CCC(Nc2ccc3nnnn3n2)CC1 read Mtb cholesterol medium: -6.087%.

Source: ChEMBL document CHEMBL3988442, “University of Dundee, Small-Polar-MMV Screening Library” (2021).